Results of unrelated studies side by side (data: NIAID ChemDB).

Shared fields: whole-cell or culture tests; agent: Hepatitis B virus; cell line: 2.2.15; read-out: EC50

Lines come from different laboratories, so protocols vary. Two numbers with a dash give a range or band. ECn is the concentration giving n% inhibition of infection, replication or growth. Blank or dashed fields: not listed here.

SMILES | strain or isolate | method | result
Nc1nc(=O)n([C@@H]2C[C@@H](O)[C@H](CO)O2)cc1Cl | - | - | 10 µM
Nc1ccn([C@H]2CC[C@@H](CO)O2)c(=O)n1 | - | - | 2.8 µM
C#C[C@@]1(CO)O[C@H](n2cnc3c(N)nc(N)nc32)C[C@H]1O | - | - | >35 µM
Nc1nc(=O)c2ncn([C@H]3O[C@@H](CO)[C@H](O)[C@@H]3O)c2c(=O)[nH]1 | - | - | 0.17 µM
Cc1cn([C@@H]2C[C@@H](F)[C@H](CO)O2)c(=O)[nH]c1=O | - | - | >10 µM
Nc1ccn([C@H]2CC[C@@H](CO)O2)c(=O)n1 | - | - | 1.4 µM
Nc1ccn([C@@H]2C[C@@H](O)[C@H](CO)O2)c(=O)n1 | - | - | 0.24 µM
CC(=O)[C@]1(O)CC[C@@]2(O)[C@]1(C)[C@H](OC(=O)/C=C(\C)C(C)C)CC1[C@@]3(C)CC[C@H](OC(=O)/C=C/c4ccccc4)CC3=CC[C@]12O | G | ELISA | 48.33 µM
Nc1nc(=O)n([C@@H]2C=C[C@H](CO)O2)cc1F | - | - | <0.1 µM
Nc1ncnc2c1ncn2[C@H]1O[C@@H](CO)C[C@H]1F | - | - | >10 µM
Nc1ccn([C@@H]2CC[C@H](CO)O2)c(=O)n1 | - | - | 0.01 µM
Nc1nc(=O)n(CC#CCO)cc1F | - | - | 100 µM
Nc1ncnc2c1ncn2[C@@H]1C[C@@H](O)[C@H](CO)O1 | - | - | 0.1–1.9 µM
Nc1nc(=O)n([C@@H]2CC[C@H](CO)O2)cc1Cl | - | - | 10 µM
CNc1ncnc2c1ncn2[C@H]1O[C@@H](CO)C[C@H]1F | - | - | >10 µM
Nc1nc(=O)n([C@@H]2C[C@@H](O)[C@H](CO)O2)cc1F | - | - | 5 µM
Cc1cn([C@@H]2C[C@@H](N)[C@H](CO)O2)c(=O)[nH]c1=O | - | - | >10 µM
O=c1[nH]c(=O)n([C@H]2O[C@@H](CO)C[C@H]2F)cc1Cl | - | - | >50 µM
Nc1ncnc2c1ncn2[C@@H]1C=C[C@H](CO)O1 | - | - | 0.8 µM
[N-]=[N+]=N[C@@H]1C[C@@H](n2cc(F)c(N)nc2=O)O[C@H]1CO | - | - | 0.11 µM
CC(C)(C)C(=O)SCCOP(=O)(OCCSC(=O)C(C)(C)C)OC[C@H]1CC[C@@H](n2cnc3c(N)ncnc32)O1 | - | - | 0.08 µM
Nc1ncnc2c1ncn2[C@@H]1O[C@@H](CO)CC1F | - | - | >100 µM
Nc1ccn([C@H]2CC[C@H](CO)S2)c(=O)n1 | - | - | >0.5 µM
O=c1ccn([C@@H]2O[C@@H](CO)C[C@H]2F)c(=O)[nH]1 | - | - | >10 µM
Nc1ccn([C@@H]2CC[C@H](CO)O2)c(=O)n1 | - | - | 0.1 µM
Nc1nc(=O)n([C@@H]2CS[C@H](CO)O2)cc1F | - | - | 0.04 µM
O=c1[nH]cnc2c1ncn2[C@@H]1O[C@@H](CO)C[C@@H]1F | - | - | >10 µM